We go through two sequences from article PMC10232890, “Impact of peptide:HLA complex stability for the identification of SARS-CoV-2-specific CD8^+T cells” (Frontiers in Immunology, 2023).

Assay [1] concerns the target HLA-A*0301 (Homo sapiens, UniProt P04439). It is filed as binding.
Assay [2] deals with HLA-A*0201 (Homo sapiens, UniProt P04439, D140Y/D185E/D98H/E176V/E277Q/G131W/G231S/I119V/I121R/I166T/I218V/L300P/L318F/N151K/N90K/P208A/P217A/Q86G/Q94H/R138H/R169H/T345S). Type of assay: binding.

EILPVSMTK: in assay [1], the “Stability (%)” value was 2%. Consider FTISVTTEI, for which the “Stability (%)” value in assay [2] amounted to 29%.
